A mixed list of measured activities; the numbers were collected in NIAID ChemDB.

Shared fields: tests in culture; species: Candida albicans; measure: MIC

An empty or dashed field is not shown. Lines come from different laboratories, so protocols vary.

SMILES,strain,method,result
C(=C\c1ccccc1)/COC(Cn1ccnc1)c1ccccc1,3M,-,64 µg/mL
CCCCCC12CCC(C(=O)N[C@H]3CCCNC(=O)C4C[C@H](N)CN4C(=O)C(C(C)O)NC(=O)C(CCc4ccc(O)cc4)NC(=O)C4C[C@@H](O)CN4C(=O)C(C(C)O)NC3=O)(CC1)CC2,ATCC CCH442,-,3.12 µg/mL
CCCCCOc1ccc(-c2ccc(-c3ccc(C(=O)N[C@H]4CCCNC(=O)[C@@H]5C[C@H](N)CN5C(=O)[C@H]([C@@H](C)O)NC(=O)[C@H](Cc5ccc(O)cc5)NC(=O)[C@@H]5C[C@@H](O)CN5C(=O)[C@H]([C@@H](C)O)NC4=O)cc3)cc2)cc1,ATCC 62376,-,50 µg/mL
Cc1c(O)cccc1C(=O)N[C@@H](CSc1ccccc1)[C@H](O)CN1C[C@H]2CCCC[C@H]2C[C@H]1C(=O)NC(C)(C)C,I10A,-,>64 µg/mL
C[C@@H](n1cnc2cc(OCC(F)F)ccc2c1=O)[C@](O)(Cn1cncn1)c1ccc(F)cc1F,406 strains,-,≤0.03 µg/mL
CC(C)(C)c1ccc(COC(Cn2ccnc2)c2ccc(Cl)cc2Cl)cc1,CA12,-,128 µg/mL
C[C@@H](n1cnc2cc(Cl)ccc2c1=O)[C@](O)(Cn1cncn1)c1ccc(Cl)cc1Cl,76 strains,-,0.07 µg/mL
CCCCCOc1ccc(-c2ccc(-c3ccc(C(=O)N[C@H]4CCCNC(=O)C5C[C@H](N)N5C(=O)C(C(C)O)NC(=O)C(CCc5ccc(O)cc5)NC(=O)C5C[C@@H](O)CN5C(=O)C(C(C)O)NC4=O)cc3)cc2)cc1,ATCC 62376,-,0.2 µg/mL
COc1ccc2c(C)c(/C(=N/O)c3ccccc3)oc2c1,Clinical isolate,-,12.5 µg/mL
N=C(N)c1ccc(-c2cc3cc(C4=NCCN4)ccc3s2)cc1,-,-,>60 µg/mL
CC(/C=C/C=C(\C)C(O)C(C)C(=O)O[C@H]1C[C@@H](C)C=C2C=C[C@]3(C)O[C@@H](O)CC(=O)[C@]3(C)[C@H]21)=C\C=C\C(=O)O,AC3409,-,0.78 µg/mL
C[C@@H](n1cnc2cc(Cl)ccc2c1=O)[C@](O)(Cn1cncn1)c1ccccc1F,406 strains,-,≤0.03 µg/mL
CCCCCOc1ccc(-c2ccc(-c3ccc(C(=O)N[C@H]4CCCNC(=O)C5C[C@H](NC(=O)NC)CN5C(=O)C(C(C)O)NC(=O)C(CCc5ccc(O)cc5)NC(=O)C5C[C@@H](O)CN5C(=O)C(C(C)O)NC4=O)cc3)cc2)cc1,ATCC CCH442,-,0.2 µg/mL
CCCCCOc1ccc(-c2ccc(-c3ccc(C(=O)N[C@H]4CCCNC(=O)[C@@H]5C[C@H](NC(=O)NC)CN5C(=O)[C@H]([C@@H](C)O)NC(=O)[C@H](CCc5ccc(O)cc5)NC(=O)[C@@H]5C[C@@H](O)CN5C(=O)[C@H]([C@@H](C)O)NC4=O)cc3)cc2)cc1,ATCC 38247,-,0.78 µg/mL
O=C1/C(=C/c2ccc3c(c2)OCO3)CSc2ccc(Cl)cc21,-,-,25 µg/mL
CC(CCCCCCCON1C(N)=NC(N)=NC12CCCCC2)c1ccccc1,-,-,19 µg/mL
CC(C)(O)c1cn(-c2ccc(Cl)cc2)nn1,URM 4606,broth dilution,128 µg/mL
O/N=C(\c1ccccc1)c1oc2ccccc2c1Cn1ccnc1,Clinical isolate,-,12.5 µg/mL
Cc1ccc(C(Cn2ccnc2)OC/C=C/c2ccccc2)cc1,3M,-,128 µg/mL
CCC(C)CC(C)CCCCCCCCC(=O)N[C@H]1C[C@@H](O)[C@H](NCCN)NC(=O)[C@@H]2[C@@H](O)CCN2C(=O)[C@H]([C@H](O)CCN)NC(=O)[C@H]([C@H](O)[C@@H](O)c2ccc(O)cc2)NC(=O)[C@@H]2C[C@@H](O)CN2C(=O)[C@H]([C@@H](C)O)NC1=O,C294,broth dilution,0.02 µg/mL
c1cc(Oc2ccc(-c3cc4ccc(C5=NCCN5)cc4[nH]3)cc2)cc(C2=NCCN2)c1,-,-,10 µg/mL
Clc1ccc(C(Cn2ccnc2)OCc2cccc3ccccc23)cc1,PR1,-,>128 µg/mL
COc1cc(O)c2c(c1)C(=O)c1c(cc3c(c1O)-c1c(cc(C)c(C(=O)NC(C)C(=O)O)c1O)[C@H](OC1OC(C)C(N(C)C)C(OC4OCC(O)C(O)C4O)C1O)[C@H]3O)C2=O,IAM4888,-,6.3 µg/mL
CCCCCCCCNC1CCCNC(=O)[C@@H]2C[C@H](N)CN2C(=O)[C@H]([C@@H](C)O)NC(=O)[C@H](CCc2ccc(O)cc2)NC(=O)[C@@H]2C[C@@H](O)CN2C(=O)[C@H]([C@@H](C)O)NC1=O,ATCC 62376,-,0.2 µg/mL
Cc1ccc(C(Cn2ccnc2)OCc2cccc3ccccc23)cc1,CA12,-,>128 µg/mL
C/C(=C\c1cc2cc(C(=N)N)ccc2o1)c1cc2cc(C(=N)N)ccc2o1,-,-,>60 µg/mL
O=c1c(OC2CCCC2)c(N2CCN(S(=O)(=O)NCc3ccccc3)CC2)cnn1-c1cccc(Cl)c1,CLY16997,broth dilution,8 µg/mL
Cc1c(S(=O)(=O)c2ccccc2)[n+](=O)c2cc(Cl)ccc2n1[O-],Clinical isolate 2,-,15.6 µg/mL
O=C(Nc1nc2ccc(NC(=O)[C@@H]3CCC[C@H](NCc4ccc5ccccc5c4)C3)cc2s1)C1CCCC1,TIMM0144,-,0.39 µM
C[C@H]1[C@H](O)[C@@H](C)/C=C/C=C/C=C/C=C/C=C/C=C/C=C/[C@H](O[C@@H]2O[C@H](C)[C@@H](O)[C@H](N)[C@@H]2O)C[C@@H]2O[C@](O)(C[C@@H](O)C[C@@H](O)CC[C@H](O)[C@@H](O)C[C@@H](O)CC(=O)O[C@H]1C)C[C@H](O)[C@H]2C(=O)O,73,-,0.48 µg/mL
N=C(N)c1ccc(Oc2ccc(/C=C/c3cc4ccc(C(=N)N)cc4[nH]3)cc2)cc1,-,-,10 µg/mL
O=C1/C(=C/c2ccc(O)cc2)CCc2ccccc21,-,-,100 µg/mL
C[C@@H](c1ncncc1F)[C@](O)(Cn1cncn1)c1ccc(F)cc1F,Isolate 2183,-,0.06 µg/mL
CCCCCCCCOc1ccc(C(=O)NC2C[C@@H](O)[C@@H](O)NC(=O)C3[C@@H](O)[C@@H](C)CN3C(=O)C(C(C)O)NC(=O)C([C@H](O)[C@@H](O)c3ccc(O)cc3)NC(=O)C3C[C@@H](O)CN3C(=O)C(C(C)O)NC2=O)cc1,MY1055,-,1 µg/mL
N=C(N)c1ccc(-c2cc3ccc(C(=N)N)cc3s2)cc1,-,-,10 µg/mL
CCCCCOc1ccc(-c2ccc(-c3ccc(C(=O)N[C@H]4CCCNC(=O)C5CN(C(=O)OCc6ccccc6)CN5C(=O)C(C(C)O)NC(=O)C(CCc5ccc(O)cc5)NC(=O)C5C[C@@H](O)CN5C(=O)C(C(C)O)NC4=O)cc3)cc2)cc1,ATCC 62376,-,>100 µg/mL
CNc1ccc(C(=O)CC(O)CCC(C)C2OC(=O)CC(O)CC(=O)CC(O)CC(O)CC(O)CC(O)CC3(O)CC(O)C(C(=O)NCCN(C)C)C(CC(O[C@@H]4O[C@H](C)[C@@H](O)[C@H](NC(=O)CN(C)C)[C@@H]4O)/C=C/C=C/C=C/C=C\C=C/C=C/C=C/C2C)O3)cc1,200,-,0.03 µg/mL
CCCCCOc1ccc(-c2ccc(-c3ccc(C(=O)N[C@H]4CCCNC(=O)[C@@H]5C[C@H](NC(C)=O)CN5C(=O)[C@H]([C@@H](C)O)NC(=O)[C@H](CCc5ccc(O)cc5)NC(=O)[C@@H]5C[C@@H](O)CN5C(=O)[C@H]([C@@H](C)O)NC4=O)cc3)cc2)cc1,ATCC 62376,-,0.2 µg/mL
CNc1ccc(C(=O)CC(O)CCC(C)C2OC(=O)CC(O)CC(=O)CC(O)CC(O)CC(O)CC(O)CC3(O)CC(O)C(C(=O)O)C(CC(O[C@@H]4O[C@H](C)[C@@H](O)[C@H](N)[C@@H]4O)/C=C/C=C/C=C/C=C\C=C/C=C/C=C/C2C)O3)cc1,200,-,0.12 µg/mL
Cc1c(S(=O)(=O)c2ccccc2)[n+](=O)c2ccccc2n1[O-],Clinical isolate 15,-,31.25 µg/mL
COc1ccc(CON2C(N)=NC(N)=NC2(C)C)cc1OC,-,-,>240 µg/mL
CCC(C)n1ncn(-c2ccc(N3CCN(c4ccc(OC[C@H]5CO[C@](Cn6cncn6)(c6ccc(Cl)cc6Cl)O5)cc4)CC3)cc2)c1=O,76 strains,-,10 µg/mL
CCOc1cc2c(cc1F)n([O-])c(C)c(Cl)[n+]2=O,Clinical isolate 3,-,62.5 µg/mL
CCCCCOc1ccc(-c2ccc(-c3ccc(C(=O)N[C@H]4CCCNC(=O)[C@@H]5C[C@H](N)CN5C(=O)[C@H](CCCN=C(N)N)NC(=O)C(CCc5ccc(O)cc5)NC(=O)[C@@H]5C[C@@H](O)CN5C(=O)[C@H]([C@@H](C)O)NC4=O)cc3)cc2)cc1,ATCC CCH442,-,0.2 µg/mL
Cc1c(Sc2ccccc2)[n+](=O)c2cc(C(F)(F)F)ccc2n1[O-],Clinical isolate 3,-,62.5 µg/mL
O[C@](Cn1cncn1)(Cn1cnc(/C=C/c2ccc(OCC(F)(F)C(F)F)cc2)n1)c1ccc(F)cc1F,Isolate V1-5,-,1 µg/mL
CCCCCCCON1C(N)=NC(N)=NC1(C)C,-,-,>60 µg/mL
CC(C)N=C(N)c1ccc2nc(-c3ccc4c(c3)Cc3cc(-c5nc6ccc(C(N)=NC(C)C)cc6[nH]5)ccc3-4)[nH]c2c1,Isolate 1866,-,1.56 µg/mL
CC1(C)N=C(N)N=C(N)N1OCc1cccc(Oc2cccc(CON3C(N)=NC(N)=NC3(C)C)c2)c1,-,-,60 µg/mL
CCCCCOc1ccc(-c2ccc(-c3ccc(C(=O)N[C@H]4CCCNC(=O)[C@@H]5C[C@H](N)CN5C(=O)[C@H]([C@@H](C)O)NC(=O)[C@H](COCc5ccccc5)NC(=O)[C@@H]5C[C@@H](O)CN5C(=O)[C@H]([C@@H](C)O)NC4=O)cc3)cc2)cc1,ATCC 38247,-,3.12 µg/mL
COc1ccc2c(C)c(/C(=N/O)c3ccc(Cl)cc3)oc2c1,NRRL Y-27077,-,5 µg/mL
CC(O)C1NC(=O)C(CCc2ccc(O)cc2)NC(=O)C2C[C@@H](O)CN2C(=O)C(C(C)O)NC(=O)[C@@H](NC(=O)c2ccc(N(C)C)cc2)CCCNC(=O)C2C[C@H](N)CN2C1=O,ATCC 10231,-,>100 µg/mL
CCC(C)CC(C)CCCCCCCCC(=O)NC1C[C@H](O)[C@@H](O)NC(=O)[C@@H]2[C@@H](O)[C@@H](C)CN2C(=O)[C@H]([C@H](O)CC(N)=O)NC(=O)[C@H](C(O)[C@H](O)c2ccc(O)cc2)NC(=O)[C@@H]2C[C@@H](O)CN2C(=O)[C@H]([C@@H](C)O)NC1=O,MY1783,-,0.5 µg/mL
CCON1C(N)=NC(N)=NC1(C)C,-,-,>60 µg/mL
C[C@@H](n1ncn(-c2ccc(OCC(F)(F)C(F)F)cc2)c1=O)[C@](O)(Cn1cncn1)c1ccc(F)cc1F,76 strains,-,10 µg/mL
CNc1ccc(C(=O)CC(O)CCC(C)C2OC(=O)CC(O)CC(=O)CC(O)CC(O)CC(O)CC(O)CC3(O)CC(O)C(C(=O)N4CCCCC4)C(CC(O[C@@H]4O[C@H](C)[C@@H](O)[C@H](N)[C@@H]4O)/C=C/C=C/C=C/C=C\C=C/C=C/C=C/C2C)O3)cc1,73,-,0.03 µg/mL
Clc1ccc(C(Cn2ccnc2)OCc2cccc3ccccc23)c(Cl)c1,CDCB385,-,128 µg/mL
O=C1/C(=C/c2ccc3c(c2)OCO3)COc2ccc(-c3ccccc3)cc21,-,-,50 µg/mL
Cc1ccc(C(Cn2ccnc2)OCc2ccc(C(C)(C)C)cc2)cc1,5M,-,>128 µg/mL
CC(=O)N[C@H]1CCCNC(=O)[C@@H]2C[C@H](N)CN2C(=O)[C@H]([C@@H](C)O)NC(=O)[C@H](CCc2ccc(O)cc2)NC(=O)[C@@H]2C[C@@H](O)CN2C(=O)[C@H]([C@@H](C)O)NC1=O,ATCC 62376,-,>100 µg/mL
COc1cc(/C=C2\CSc3ccccc3C2=O)ccc1O,-,-,50 µg/mL
C[C@@H](O)[C@@H]1NC(=O)[C@H](CCc2ccc(O)cc2)NC(=O)[C@@H]2C[C@@H](O)CN2C(=O)[C@H]([C@@H](C)O)NC(=O)[C@@H](NC(=O)c2ccc(N3CCNCC3)cc2)CCCNC(=O)[C@@H]2C[C@H](N)CN2C1=O,ATCC 38247,-,>100 µg/mL
C[C@@H](n1cnc2cc(-n3ncnn3)ccc2c1=O)[C@](O)(Cn1cncn1)c1ccc(F)cc1F,406 strains,-,≤0.03 µg/mL
O/N=C(\c1ccccc1)c1oc2ccc(Cl)cc2c1Cn1ccnc1,NRRL Y-27077,-,25 µg/mL

The last 7 rows once more:

| SMILES | strain | method | result |
|---|---|---|---|
| O=C1/C(=C/c2ccc3c(c2)OCO3)COc2ccc(-c3ccccc3)cc21 | - | - | 50 µg/mL |
| Cc1ccc(C(Cn2ccnc2)OCc2ccc(C(C)(C)C)cc2)cc1 | 5M | - | >128 µg/mL |
| CC(=O)N[C@H]1CCCNC(=O)[C@@H]2C[C@H](N)CN2C(=O)[C@H]([C@@H](C)O)NC(=O)[C@H](CCc2ccc(O)cc2)NC(=O)[C@@H]2C[C@@H](O)CN2C(=O)[C@H]([C@@H](C)O)NC1=O | ATCC 62376 | - | >100 µg/mL |
| COc1cc(/C=C2\CSc3ccccc3C2=O)ccc1O | - | - | 50 µg/mL |
| C[C@@H](O)[C@@H]1NC(=O)[C@H](CCc2ccc(O)cc2)NC(=O)[C@@H]2C[C@@H](O)CN2C(=O)[C@H]([C@@H](C)O)NC(=O)[C@@H](NC(=O)c2ccc(N3CCNCC3)cc2)CCCNC(=O)[C@@H]2C[C@H](N)CN2C1=O | ATCC 38247 | - | >100 µg/mL |
| C[C@@H](n1cnc2cc(-n3ncnn3)ccc2c1=O)[C@](O)(Cn1cncn1)c1ccc(F)cc1F | 406 strains | - | ≤0.03 µg/mL |
| O/N=C(\c1ccccc1)c1oc2ccc(Cl)cc2c1Cn1ccnc1 | NRRL Y-27077 | - | 25 µg/mL |